Source: US11918635B2, “Method and platform for detecting immunogenicity of tumor neoantigen” (NeoCura Bio-Medical Technology Co., Ltd, priority 2019, dated 2024)

Test system: human peripheral blood monocytes (PBMCs)
Assay: ELISPOT platform building experiment (Human IFN-γ Single-Color ELISPOT)
Format: cell-based

Influenza Matrix M1: antigenic peptide fragment of human influenza virus: sequence fragment at positions 58-66 of Influenza Matrix Protein M1; supplier Cellular Technology Limited
number of spots finally formed in each well of a Petri dish: increases with the increase of the additional amount of the antigenic peptide fragment
